Marks after values point to notes of the source that are not given here.
Legend:
[1] = system: EBV; experiment: EBV assay: superinfection of Raji or Daudi cells with P3HR-1, immunofluorescence for EA and VCA; assay type: cell-based, Epstein-Barr virus; details: IC50/EC50
Text: There are two prototypes of infectious EBV. One is exemplified by the virus derived from supernatant fluids of the P3HR-1cell line. This cell line produces nontransforming virus that causes the production of early antigen (EA) after primary infection or superinfection of B cell lines. The other prototype is exemplified by the B-95-8 virus. This virus immortalized cord blood lymphocytes and induced tumors in marmosets.
The virus used in our assays is P3HR-1.
Ramos is an exceptional B cell line derived from Burkitt's lymphoma tumor but containing no detectable EBV genome copies and is EBNA negative. Ramos/AW was obtained by in vitro infection of Ramos with the P3HR-1 virus and contains one resident EBV genome copy/cell. Raji is a Burkitt's lymphoma cell line containing 60 EBV genomes/cell, and will be the primary cell used for screening antiviral activity against EBV EA expression. Daudi is a low level producer that contains 152 EBV genome copies/cell. It spontaneously expresses EBV EA in 0.25%-0.5% of the cells. It will be used in follow-up studies to confirm activity. These cell lines respond to superinfection by EBV by expressing EA(D), EA(R), and VCA. All cell lines are maintained in RPMI-1640 medium supplemented by 10% FCS, L-glutamine and 100 μg/mL gentamicin. The cultures are fed twice weekly and the cell concentration adjusted to 3×10^5/mL. The cells are kept at 37° C. in a humidified atmosphere with 5% CO2.
Cells are infected with the P3HR-1 strain of EBV and the drugs to be tested are added after adsorption (45 minutes at 37° C.) and washing of the cell cultures. The cultures are incubated for two days in complete medium to allow viral gene expression. Following the 48 hr incubation period, the number of cells of each sample are counted and smears made. Monoclonal antibodies to the different EA components and VCA are then added to the cells incubated and washed. This is followed by a fluorescein conjugated rabbit anti-mouse Ig antibody; and the number of fluorescence positive cells in the smears are counted. The total number of cells in the cultures positive for EA or VCA are then calculated and compared.

[2] = system: HCMV; experiment: HCMV semi-automated CPE-inhibition assay in human foreskin fibroblast cells; assay type: cell-based, human cytomegalovirus; details: IC50/EC50
[3] = system: HBV; experiment: HBV replication in cultures of 2.2.15 cells, extracellular HBV virion DNA (primary assay); details: IC50/EC50
[4] = system: HCMV isolates Towne, AD169, E. Mann, Coffman, C9208; experiment: Anti-CMV plaque reduction assay against various laboratory and clinical isolates (Example 40); assay type: cell-based, human cytomegalovirus; details: MTC/EC50
Description: On the date of assay, the drug is made up at twice the desired concentration in 2x MEM and then serially diluted 1:5 in 2x MEM using six concentrations of drug. The initial starting concentration is usually 200 gg/mL down to 0.06 μg/mL. […] The media is then aspirated from the wells and 0.2 mL of virus is added to each well in duplicate with 0.2 mL of media being added to drug toxicity wells. The plates are then incubated for one hour with shaking every fifteen minutes. […] This will give final drug concentrations beginning with 100 μg/mL and ending with 0.03 μg/mL and a final agarose overlay concentration of 0.5%. The drug agarose mixture is applied to each well in 2 mL volume and the plates then incubated for three days, after which the cells were stained with a 1.5% solution of neutral red. At the end of 4-6hr incubation period, the stain is aspirated, and plaques counted using a stereomicroscope at lOx magnification. The procedure again is nearly the same as for HSV with a few minor changes. […] The assay is incubated for 14 days with the additional 1 mL overlays being applied on days four and eight. The procedure for the liquid overlay plaque assay is similar to that using the agarose overlay. The procedure for adding the virus is the same as for the regular plaque assay. The drugs are made up in a concentration to be used in MEM with 2% FBS. The drugs are not made up at 2x concentration as in the previous assays but are made up at the desired concentration. For HSV-1 and HSV-2 assays, an antibody preparation obtained from Baxter Health Care Corporation is diluted 1:500 and added to the media that the drug is diluted in. For CMV and VZV, no antibody in the overlay is utilized. For the CMV assay, additional medium without new drug is added on day five and allowed to incubate for a total of 10 days. For VZV, additional medium is added on day five and incubated for a total of 10 days. At the end of the incubation period for all of the assays, 2 mL of 1:10 dilution of stock neutral is added to each well incubated for six hours. The liquid is then aspirated off and plaques enumerated using a stereomicroscope. Five calanolide analogues, prepared as described above, were further evaluated for their anti-HCMV activity in plaque reduction assay against various laboratory and clinical isolates (Towne, AD 169, E. Mann, Coffinan, and […]).

[5] = system: VZV; experiment: VZV plaque reduction assay in human foreskin fibroblast cells; assay type: cell-based, varicella zoster virus; details: IC50/EC50
Description: Two days prior to use, HFF cells are plated into six-well plates and incubated at 37° C. with 5% CO2 and 90% humidity. On the date of assay, the drug is made up at twice the desired concentration in 2x MEM and then serially diluted 1:5 in 2x MEM using six concentrations of drug. The initial starting concentration is usually 200 gg/mL down to 0.06 μg/mL. The virus to be used is diluted in MEM containing 10% FBS to a desired concentration which will give 20-30 plaques per well. The media is then aspirated from the wells and 0.2 mL of virus is added to each well in duplicate with 0.2 mL of media being added to drug toxicity wells. The plates are then incubated for one hour with shaking every fifteen minutes. After the incubation period, an equal amount of 1% agarose was added to an equal volume of each drug dilution. This will give final drug concentrations beginning with 100 μg/mL and ending with 0.03 μg/mL and a final agarose overlay concentration of 0.5%. The drug agarose mixture is applied to each well in 2 mL volume and the plates then incubated for three days, after which the cells were stained with a 1.5% solution of neutral red. At the end of 4-6hr incubation period, the stain is aspirated, and plaques counted using a stereomicroscope at lOx magnification.
The procedure is essentially the same as for the HSV plaque assay described above with two exceptions:
1. After addition of the drug, the plates are incubated for ten days.
2. On days three and six, an additional 1 mL overlay with equal amounts of 2x MEM and 1% agarose are added.

[6] = system: HIV-1; details: IC50/EC50

Row | Compound | EBV SI [1] | HCMV SI [2] | HBV SI [3] | VZV SI [5] | further results
1 | CCCc1cc(=O)oc2c3c(c4c(c12)OC(C)(C)C=C4)O[C@@H](C)[C@H](C)[C@@H]3O [(−)-calanolide B, (-)-Calanolide B] | <1 | 30 | <100 | <5 | TI ([4]; isolate AD169): 3.2; TI ([4]; isolate C9208): 3.3; TI ([4]; isolate Coffman): <31; TI ([4]; isolate E. Mann): 3.2; TI ([4]; isolate Towne): <31
2 | CCCc1cc(=O)oc2c3c(c4c(c12)OC(C)(C)C=C4)O[C@H](C)[C@H](C)C3=O [(+)-7a] | <3 | <3 | 153^d | – | –
3 | CCCc1cc(=O)oc2c3c(c4c(c12)OC(C)(C)C=C4)OC(C)(C)C(C)C3=O (racemic) [(±)-15b, (±)-10,11-Dihydro-6,6,10,10,11-pentamethyl-4-propyl-2H, 6H, 12H-benzo[1,2-b:3,4-b′:5,6-b″]tripyran-2,12-dione] | <1 | <3 | <31 | <3 | –
4 | CCCc1cc(=O)oc2c3c(c4c(c12)OC(C)(C)C=C4)OC(CC)C(C)C3O (racemic) [(±)-16e, (±)-10,11-trans-11,12-cis-10,11-Dihydro-10-ethyl-12-hydroxy-4-propyl-6,6,11-trimethyl-2H,6H,12H-benzo [1,2-b:3,4-b′:5,6-b″]tripyran-2-one] | – | – | – | – | TI [6]: 8
5 | CCCc1cc(=O)oc2c3c(c4c(c12)OC(C)(C)C=C4)OC(CC)C(C)C3=O (racemic) [(±)-15c, (±)-10,11-trans-10,11-Dihydro-10-ethyl-4-propyl-6,6,11-trimethyl-2H,6H,12H-benzo[1,2-b:3,4-b ″]tripyran-2,12-dione] | <1 | <4 | <15 | <3 | –
6 | CCCc1cc(=O)oc2c3c(c4c(c12)OC(C)(C)C=C4)OC(C)C(C)C3=O (single isomer, unassigned; (-)) [(−)-7] | <1 | <1.2 | <32 | – | –
7 | CCCc1cc(=O)oc2c3c(c4c(c12)OC(C)(C)C=C4)OC(CC)C(C)C3O (racemic) [(±)-16f, (±)-10,11-qrans-11,12-trans-10,11-dihydro-10-ethyl-12-hydroxy4-propyl-6,6,11-trimethyl-2H,6H,12H-benzo [1,2-b:3,4-b′:5,6-b″]tripyran-2-one] | – | – | – | – | TI [6]: 9
8 | CCCc1cc(=O)oc2c3c(c4c(c12)OC(C)(C)C=C4)OC(C)C(C)C3=O (single isomer, unassigned; (-)) [(−)-7a] | – | <3 | <8.6 | – | –
9 | CCCc1cc(=O)oc2c(C(=O)[C@H](C)[C@@H](C)OC(C)=O)c(O)c3c(c12)OC(C)(C)C=C3 [(+)-10, 6,6Dimethyl-9-hydroxy-10-[2(R)-methyl-3(R)-acetoxybutyro]-4-propyl-2H,6H-benzo-[1,2-b:3,4-b′]dipyran-2-one] | – | – | – | – | TI [6]: 11
10 | CCCc1cc(=O)oc2c3c(c4c(c12)OC(C)(C)CC4)OC(C)C(C)C3O (single isomer, unassigned; (-)) [(−)-23] | – | <5 | 97 | <4 | TI ([4]; isolate AD169): 3.2; TI ([4]; isolate C9208): 3.3; TI ([4]; isolate Coffman): <32; TI ([4]; isolate E. Mann): 3.2; TI ([4]; isolate Towne): 3.2
11 | CCCc1cc(=O)oc2c(C(=O)[C@@H](C)[C@@H](C)O)c(O)c3c(c12)OC(C)(C)C=C3 (relative stereo) [(±)-8a, 6,6-Dimethyl-9-hydroxy-10-[2(S*)-methyl-3(R*)-hydroxybutyro-]4-propyl-2H,6H-benzo[1,2-b:3,4b′]dipyran-2-one] | – | – | – | – | TI [6]: 4
12 | CCCc1cc(=O)oc2c1c1c(c3oc(C)c(C)c(=O)c32)C=CC(C)(C)O1 [Compound 5, 6,6,10,11-tetramethyl-4-propyl-2H,6H,12H-benzo[1,2-b:3,4-b′:5,6-b″]tripyran-2,12-dione] | <1 | <1 | <209 | <3 | –
13 | CCCc1cc(=O)oc2c3c(c4c(c12)OC(C)(C)C=C4)O[C@@H](C)[C@H](C)[C@H]3O [(−)-1, (-)-Calanolide A] | <1 | <4 | <6 | – | –
14 | CC1Oc2c3c(c4c(-c5ccccc5)cc(=O)oc4c2C(O)C1C)OC(C)(C)C=C3 (single isomer, unassigned; (-)) [(−)-24] | <1 | <4 | <15 | <3 | –
15 | CCCc1cc(=O)oc2c3c(c4c(c12)OC(C)(C)CC4)OC(C)C(C)C3=O (single isomer, unassigned; (+)) [(+)-18a] | <1 | <1 | 1 | <1 | –
16 | CCCc1cc(=O)oc2c3c(c4c(c12)OC(C)(C)C=C4)O[C@H](C)[C@@H](C)[C@@H]3O [(+)-1, (+)-Calanolide A] | <1 | <4 | <67 | – | –
17 | CCCc1cc(=O)oc2c3c(c4c(c12)OC(C)(C)C=C4)OC(C(C)C)C(C)C3=O (racemic) [(+)-15e] | <1 | <4 | <8.6 | <1 | –

Reference: patent publication US20020013478A1, “Calanolide analogues and methods of their use” (Sarawak Medichem Pharmaceuticals,Inc., priority 1994, published 2002)
